1 compound from article PMC10467137, “In Silico–Ex Vitro Iteration Strategy for Affinity Maturation of Anti-Ricin Peptides and the SPR Biosensing Application” (2023) can be followed below.

The experiment concerns the target ricin (Ricinus communis, UniProt P02879). In words: SPR binding affinity and kinetics of peptides to immobilised ricin. Conditions: SPR Biacore T200, ricin on CM5 chip, peptides in 0.01 M HEPES, 0.15 M NaCl, 0.05% Tween 20, pH 7.4; multi-cycle kinetics, 1:1 binding model. Background: In SPR one partner is held on a chip, and binding of the other changes the refractive index at the surface.

Compound `C[C@H](NC(=O)[C@H](CC(N)=O)NC(=O)[C@H](Cc1ccccc1)NC(=O)[C@H](Cc1ccc(O)cc1)NC(=O)[C@H](CO)NC(=O)[C@@H](N)CCC(N)=O)C(=O)N[C@@H](CS)C(=O)N[C@@H](Cc1c[nH]c2ccccc12)C(=O)N[C@@H](CO)C(=O)N[C@@H](CS)C(=O)N[C@@H](CC(N)=O)C(=O)N[C@@H](Cc1c[nH]cn1)C(=O)O` returned a ka of 470 M⁻¹ s⁻¹.
